Pooled drug test results. Numbers come from NIAID ChemDB, via PubChem.

Common to all: growth or infection tests; organism: HIV-1; read-out: EC50

Conditions beyond the fields shown may differ between rows. Blank or dashed fields: not listed here. ECn is the concentration giving n% inhibition of infection, replication or growth.

SMILES	strain or isolate	changes	cells	read by	result
O=C(O)C1CC(C(=O)O)SS1	RF		CEM + CEM-SS	XTT	>200 µM
CS[C@@]12C[C@H]3C(=O)CC[C@H](O)[C@H]3N1C(=O)[C@]1(SC)CC3=CC=C[C@H](O)[C@H]3N1C2=O	NL4-3		293T	luciferase / luminescence	8.7 µM
C=C(C)[C@@H]1CC[C@]2(C(=O)NCCCCCCCC(=O)N[C@@H](CC(C)C)[C@@H](O)CC(=O)O)CC[C@]3(C)[C@H](CC[C@@H]4[C@@]5(C)CC[C@H](O)C(C)(C)[C@@H]5CC[C@]43C)[C@@H]12	ELI		CEM	cytopathic effect / MTT	>1 µM
Cc1ccc(C)n1-c1ccc(C(=O)O)c(O)c1	SF162 R5 CLADE B		PBMC/5.25M7	luciferase / cell fusion	20.61 µM
C/C=C/COc1cc(NC(=S)c2ccn(C)c2C)ccc1Cl		RT-Y181C	CEM	syncytia	1.1 µM
CC(C)C[C@H](NC(=O)[C@@H](N)[C@@H](C)O)C(=O)N[C@@H](CC(N)=O)C(=O)N[C@@H](Cc1ccccc1)C(=O)O			PBL	syncytia	>200 µg/mL
Cc1ccsc1C(=S)Nc1ccc(Cl)c(C(=O)OC2CCCCC2)c1		RT-E138K	CEM	syncytia	1 µM
CS[C@@]12C[C@@H]3C(=O)C=C[C@H](O)[C@H]3N1C(=O)[C@]1(SC)CC3=CC=C[C@H](O)[C@H]3N1C2=O	NL4-3		293T	luciferase / luminescence	3.2 µM
Cc1sccc1C(=S)Nc1ccc(Cl)c(C(=O)OC2CCCCC2)c1	IIIB		CEM	syncytia	0.007 µM
O=S1CC(CO)(CO)CS1	RF		CEM + CEM-SS	XTT	>200 µM
CC(=O)N[C@H](C(=O)N[C@@H](CC(C)C)C(=O)N[C@@H](CC(N)=O)C(=O)N[C@@H](Cc1ccccc1)C(N)=O)[C@@H](C)O			PBL	syncytia	>200 µg/mL
C#Cc1ccc(Nc2nccc(Oc3c(C)cc(-c4cn(Cc5ccc(C(=O)OC)cc5)nn4)cc3C)n2)cc1	RES056		MT-4	MTT	≥37.66 µM
O=C(Nc1ccc(Cl)c(C(=O)OC2CCCCC2)c1)c1ccccc1F		RT-L100I	CEM	syncytia	≥27 µM
O=C(O)C(O)c1ccccc1	X4 clinical isolate		CD4+ T-CELLS + CD4	p24	<1 µg/mL
Cc1ccccc1C(=S)Nc1ccc(Cl)c(C(=O)OC(C)C)c1		RT-Y181C	CEM	syncytia	15 µM
Cc1cn([C@@H]2O[C@H](CO)C3(OS(=O)(=O)C=C3N)[C@H]2O[Si](C)(C)C(C)(C)C)c(=O)[nH]c1=O	HE		MT-4	cytopathic effect / trypan blue	>40 µg/mL
CS[C@@]1(Cc2ccccc2)NC(=O)[C@](O)(Cc2ccccc2)NC1=O	NL4-3		293T	luciferase / luminescence	5.8 µM
CC(=O)N[C@@H](CC(C)C)C(=O)N[C@H](C(=O)N[C@@H](CC(C)C)C(=O)N[C@@H](CC(N)=O)C(=O)N[C@@H](Cc1ccccc1)C(=O)O)[C@@H](C)O			PBL	syncytia	>200 µg/mL
Cc1occc1C(=S)Nc1ccc(Cl)c(OCCC(C)C)c1		RT-V106A	CEM	syncytia	0.291 µM
O[C@@H]1CSSC[C@H]1O	RF		CEM + CEM-SS	XTT	>200 µM
CC[C@H](C)[C@H](NC(C)=O)C(=O)NCC(=O)N[C@@H](CC(C)C)C(=O)N[C@H](C(=O)N[C@@H](CC(C)C)C(=O)N[C@@H](CC(N)=O)C(=O)N[C@@H](Cc1ccccc1)C(=O)O)[C@@H](C)O			PBL	syncytia	>200 µg/mL
CC(C)=CCOc1cc(NC(=S)c2ccsc2C)ccc1Cl		RT-Y188L	CEM	syncytia	1.9 µM
CS[C@@]1(Cc2ccccc2O)NC(=O)/C(=C/c2ccccc2)NC1=O	NL4-3		293T	luciferase / luminescence	6.7 µM
C#Cc1ccc(Nc2nccc(Oc3c(C)cc(-c4cn(CCc5cccs5)nn4)cc3C)n2)cc1	IIIB	L100I	MT-4	MTT	>5.53 µM
CO/N=C/c1cc(NC(=S)c2ccoc2C)ccc1OC		RT-V106A	CEM	syncytia	0.46 µM
O=C(O)C(O)c1ccccc1	IIIB		MT-2	cytopathic effect	6.5 µg/mL
CS[C@@]12CC3=CC=C[C@H](O)[C@H]3N1C(=O)[C@@]13C[C@H]4C(=O)C[C@@H](S1)[C@H](O)[C@H]4N3C2=O	NL4-3		293T	luciferase / luminescence	14.8 µM
CC(=O)O[C@@H]1CSSC[C@H]1OC(C)=O	RF		CEM + CEM-SS	XTT	>200 µM
CC(C)OC(=O)c1cc(NC(=S)c2ccsc2)ccc1Cl		RT-E138K	CEM	syncytia	14 µM
C=C(C)[C@@H]1CC[C@]2(C(=O)NCC(=O)O)CC[C@]3(C)[C@H](CC[C@@H]4[C@@]5(C)CC[C@H](O)C(C)(C)[C@@H]5CC[C@]43C)[C@@H]12	LAI		CEM		>3 µM
Cc1ccsc1C(=S)Nc1ccc(Cl)c(/C=N/OC(C)(C)C)c1		RT-L100I	CEM	syncytia	0.54 µM
CC(=O)O[C@H]1CSS(=O)(=O)C[C@H]1OC(C)=O	RF		CEM + CEM-SS	XTT	>9.2 µM
CC(C)OC(=O)c1cc(NC(=S)c2ccccc2N)ccc1Cl		RT-Y181C	CEM	syncytia	15 µM
CSCC[C@H](NC(=O)[C@H](Cc1cnc[nH]1)NC(C)=O)C(=O)N[C@H](C(=O)N[C@@H](CC(C)C)C(=O)N[C@@H](CC(N)=O)C(=O)N[C@@H](Cc1ccccc1)C(=O)O)[C@@H](C)O			PBL	syncytia	>200 µg/mL

Repeating the first 4 entries:

SMILES	strain or isolate	changes	cells	read by	result
O=C(O)C1CC(C(=O)O)SS1	RF		CEM + CEM-SS	XTT	>200 µM
CS[C@@]12C[C@H]3C(=O)CC[C@H](O)[C@H]3N1C(=O)[C@]1(SC)CC3=CC=C[C@H](O)[C@H]3N1C2=O	NL4-3		293T	luciferase / luminescence	8.7 µM
C=C(C)[C@@H]1CC[C@]2(C(=O)NCCCCCCCC(=O)N[C@@H](CC(C)C)[C@@H](O)CC(=O)O)CC[C@]3(C)[C@H](CC[C@@H]4[C@@]5(C)CC[C@H](O)C(C)(C)[C@@H]5CC[C@]43C)[C@@H]12	ELI		CEM	cytopathic effect / MTT	>1 µM
Cc1ccc(C)n1-c1ccc(C(=O)O)c(O)c1	SF162 R5 CLADE B		PBMC/5.25M7	luciferase / cell fusion	20.61 µM